Anti-infective test results gathered from many reports (values: NIAID ChemDB through PubChem).

Shared fields: host cell toxicity; endpoint: CC50

CCn: concentration that lowers growth or viability of the cells by n%. Rows are shuffled and stem from different studies. Blank or dashed fields: not listed here.

compound	cells	method	setting	result
COc1ccncc1CNCCCNc1ccnc2cc(Cl)ccc12	HepG2 cells	MTT		4.968 µM
O=c1c(-c2ccccc2)c(O)c2cc(-c3cccc(-c4ccccc4)c3)cnc2n1O	HeLa			<100 µM
Nc1nc(N)c2cc3c(ccc4ccccc43)nc2n1	PC-3	MTT		4.6 µM
Cc1cc(O)c(C(=O)/C=C/c2ccc(Br)s2)c(=O)o1	HCT116	MTT		>10 µM
Cc1ccc(NCc2nnc(SCC(=O)NN=CC(O)C(O)C(O)C(O)CO)n2-c2ccccc2)cc1	HepG2 2.2.15			>100 µM
CC(=O)c1cc(CC(=O)c2ccccc2)c(=O)n2c1sc1ccccc12	HEF			40 µg/mL
CC(C)CCN([C@@H](CCCCNC(=O)[C@@H](N)C(c1ccccc1)c1ccccc1)C(C)O)S(=O)(=O)c1ccc(N)cc1	T lymphoid cells	microscopy		>10 µM
CSc1nsc(-c2ccc(OCCc3ccccc3)cc2)c1C#N	HELA-OHIO			>50 µM
N#Cc1cc(CC(=O)c2ccccc2)c(=O)n2c1sc1ccccc12	HEF			200 µg/mL
C=C(C)C1CC[C@]2(C(=O)O)CC[C@]3(C)C(CCC4[C@@]5(C)C[C@@H](O)[C@H](OC(C)=O)C(C)(C)C5CC[C@]43C)C12	1A2	XTT		19.8 µg/mL
CCOC(=O)c1cc(CC(=O)c2ccccc2)c(=O)n2c1sc1ccccc12	HEF			40 µg/mL
CCc1nc(-c2ccc(OCCC(C)CCN3CCN(c4ccncc4)C3=O)cc2)no1	RD			>25 µM
c1ccc(NCc2nnc(Sc3ccccc3)o2)cc1	HepG2 2.2.15			>100 µM
CC(C)(C)C(=O)SCCOP(=O)(CO[C@@]1(C2CC2)C[C@@H](n2cnc3c(N)ncnc32)[C@H](O)[C@@H]1O)OCCSC(=O)C(C)(C)C	T4	XTT / absorbance		65 µM
Clc1ccc2c(NCCCNCc3ccncc3)ccnc2c1	HepG2 cells	MTT		35.9 µM
CN1CCN(c2ccnc3nc(CN(CCCCN)Cc4nccn4C)[nH]c23)CC1	C8166	MTT		>10 µM
CC(CCCOc1ccc(-c2ccc(Cl)cc2)cc1)CN1CCN(c2ccncc2)C1=O	RD			>25 µM
CSc1nsc(-c2ccc(OCCOc3ccc([N+](=O)[O-])cc3)cc2)c1C#N	HELA-OHIO			2 µM
COc1ccc(Sc2nc(N)nc3c2ncn3CCOCP(=O)(OCC(F)(F)F)OCC(F)(F)F)cc1	HB611			>100 µM
CCOC(=O)C1=C(CN2CCOCC2)NC(C2=NC=CC2)=NC1c1ccc(F)cc1Br	HepAD38	MTT		26 µM
CCOC(=O)c1cc(CC(=O)c2ccccc2)c(=O)n2c1oc1ccccc12	HEP-2			40 µg/mL
Cc1ccc(-n2cc3c(cc2=N)C(=O)c2ccccc2C3=O)c(Br)c1	J774A.1 macrophages	neutral red		11.25 µM
Cc1[nH]nc2c1c(=O)n(O)c1ncccc21	HeLa			<100 µM
CSc1nsc(-c2ccc(OCCCCOc3ccc(C#N)cc3)cc2)c1C#N	HELA-OHIO			2 µM
C#Cc1cn([C@@H]2O[C@H](CO)[C@@H](O)[C@H]2F)c2ncnc(N)c12	Replicon cells	XTT		28.92 µM
O=c1[nH]c(=O)n([C@H]2C[C@H](O)[C@@H](CO)O2)cc1/C=C\Cl	PRK			>200 µg/mL
COc1c2c(c(OC)c3ccccc13)CN(c1ccccc1Cl)C(=N)C2	J774A.1 macrophages	neutral red		21.14 µM
C[C@H](O)Cc1cc2c(O[C@H]3O[C@H](CO)[C@@H](O)[C@H]3O)ccc(O)c2c(=O)o1	HL-60	MTT		>40 µg/mL
Cc1ccnc2c1NC(=O)c1cccnc1N2C1CC1	A72	MTT		>4 µg/mL
CCOC(=O)c1ccc(OCCOc2ccc(-c3snc(SC)c3C#N)cc2)cc1	HELA-OHIO			2 µM
Nc1ncnc2c1c(-c1cccs1)cn2[C@H]1O[C@H](CO)[C@@H](O)C1(F)F	Replicon cells	XTT		38.42 µM
O=C1N(CCC2(CCOc3ccc(-c4ccc(Cl)cc4)cc3)CCCCC2)CCN1c1ccncc1	RD			>25 µM
Cc1cc(O)c(C(=O)/C=C/c2ccc(F)cc2)c(=O)o1	HCT116	MTT		>10 µM
O=C(O)c1ccccn1	HFS	visual reading	7 d	>600 µM
C[C@@H](c1ccccc1)N(CC(=O)Nc1ccc(-c2csc(N)n2)cc1)C(=O)c1ccncc1	BHK-21/C13			59 µM
COC(=O)N[C@H](C(=O)N[C@H](CCC[C@@H](CO)N(CCC(C)C)S(=O)(=O)c1ccc([C@@H](C)O)cc1)C1CC1)C(c1ccc(F)cc1)c1ccc(F)cc1	T lymphoid cells	microscopy		>10 µM
Clc1ccc2c(NCCNCc3ccc(Br)cc3)ccnc2c1	HepG2 cells	MTT		6.583 µM
Cc1ccccc1CN(CCCCN)Cc1nc2nccc(N3CCN(C)CC3)c2[nH]1	C8166	MTT		>10 µM
Cc1nc(-c2ccc(OCCC(C)CCN3CCN(c4ccncc4)C3=O)cc2)no1	RD			>6.25 µM
COc1c2c(c(OC)c3ccccc13)CN(c1ccccc1Br)C(=N)C2	J774A.1 macrophages	neutral red		19.41 µM
CC(CCN)(NC(=O)c1ccc(-c2ccc(C(F)(F)F)cn2)[nH]1)c1nc(CO)cs1	TZM-bl	MTS / absorbance		>70.5 µM
Nc1ncnc2c1c(-c1ccsc1)cn2[C@H]1O[C@H](CO)[C@@H](O)C1(F)F	Replicon cells	XTT		40.45 µM
CCOC(=O)c1c(NC(=O)c2c(F)c(F)c(F)c(F)c2F)sc2c1CCOC2	THP-1 human monocytic cells			5.3 µM
Clc1ccc2c(NCCCNCc3cnccc3Cl)ccnc2c1	HepG2 cells	MTT		3.756 µM
CCOC(=O)c1ccc(OCCCCOc2ccc(-c3snc(SC)c3C#N)cc2)cc1	HEP-2/L-929/VERO			2 µM
Nc1ncnc2c1c(-c1ccco1)cn2[C@@H]1O[C@H](CO)[C@@H](O)[C@H]1F	Replicon cells	XTT		33.46 µM
C=C(C=O)[C@@H]1CC[C@@]2(C)C1C1CCC3[C@@]4(C)CC[C@H](O)C(C)(C)C4CC[C@@]3(C)[C@]1(C)C[C@@H]2O	CEM.NKR-CCR5			>10 µM
O=c1[nH]c(=O)n([C@H]2C[C@H](O)[C@@H](CO)O2)cc1/C=C/Br	PRK			200 µg/mL
COC(=O)N[C@H](C(=O)N[C@@H](C)CCC[C@@H](CO)N(C(C)C)S(=O)(=O)c1ccc(C(C)=O)cc1)C(c1ccccc1)c1ccccc1	T lymphoid cells	microscopy		>10 µM
CN1CCN(c2ccnc3nc(CN(CCCCN)Cc4cccnc4)[nH]c23)CC1	C8166	MTT		>10 µM
Nc1nc2c(ncn2COCCO)c(=O)[nH]1	H-1			1000 µM
Nc1ncnc2c1c(-c1cccs1)cn2[C@@H]1O[C@H](CO)[C@@H](O)[C@H]1F	Replicon cells	XTT		>44 µM
O=C1N(CCC(CCOc2ccc(-c3ccc(Cl)cc3)cc2)Cc2ccccc2)CCN1c1ccncc1	RD			>10 µM
Cc1cn([C@@H]2O[C@H](CO)[C@@H](O)[C@@H]2F)c(=O)[nH]c1=O	H-1			50 µM
CCc1cccnc1CN(C)Cc1nc2nccc(N3CCN(C)CC3)c2[nH]1	C8166	MTT		>10 µM
COc1ccc(/C=C/C(=O)c2c(O)cc(/C=C/c3ccc(N(C)C)cc3)oc2=O)cc1	HCT116	MTT		>10 µM
O=c1cc(N2CCc3ccc(-c4ccc(F)cc4)cc3C2)c2cccnc2n1O	HeLa			<100 µM
Nc1ncnc2c1c(-c1ccccc1)cn2[C@H]1O[C@H](CO)[C@@H](O)C1(F)F	Replicon cells	XTT		43.14 µM
CC[C@@H](CCC[C@@H](CO)N(C(C)C)S(=O)(=O)c1ccc(C(C)=O)cc1)NC(=O)[C@@H](NC(=O)OC)C(c1ccccc1)c1ccccc1	T lymphoid cells	microscopy		>10 µM
N=c1cc2c(cn1-c1ccccc1Cl)C(=O)c1ccccc1C2=O	J774A.1 macrophages	neutral red		29.12 µM
N#Cc1c(NC(=O)c2c(F)c(F)c(F)c(F)c2F)sc2c1CCOC2	THP-1 human monocytic cells			24 µM
COc1ccc(/C=C/C=C/C(=O)c2c(O)cc(C)oc2=O)cc1	HCT116	MTT		>10 µM
CC(C)N([C@H](CO)CCCC(C)(C)NC(=O)[C@@H](N)C(c1ccccc1)c1ccccc1)S(=O)(=O)c1ccc(N)cc1	T lymphoid cells	microscopy		>10 µM
CC(=O)NC[C@H]1CN(c2ccc(N3CCN(C4=NS(=O)(=O)c5ccccc5N4C)CC3)c(F)c2)C(=O)O1	Human foreskin fibroblasts	MTT		>100 µg/mL
O=C1N(Cc2ccccc2COc2ccc(-c3ccc(Cl)cc3)cc2)CCN1c1ccncc1	RD			>1.25 µM
CC(=O)OC(C(C)C(C)C(C)(C)OC(C)=O)C1OC12C(O)CC1C3CCC4CC(=O)CCC4C3CCC12CO	HT-29	MTT		>50 µg/mL
Clc1ccc2c(NCCCNCc3ccccc3)ccnc2c1	HepG2 cells	MTT		2.906 µM
CC(=O)OCC(C)(O)C(C)C(C)C(OC(C)=O)C1OC12C(O)CC1C3CCC4CC(=O)CCC4C3CCC12COC(C)=O	HT-29	MTT		>50 µg/mL
CN1C=CN(c2cccc(N3C=CN(C)C3)n2)C1.[Cl][Au].[Cl][Au]	PC-3	sulforhodamine / absorbance		>30 µM
NNC(=O)c1ccncc1	J774A.1 macrophages	neutral red		>100 µM
Cc1cc(O)c(C(=O)/C=C/c2ccc(Br)cc2)c(=O)o1	HCT116	MTT		>10 µM
NCCC(NC(=O)c1ccc(-c2ncc(Cl)cn2)[nH]1)c1nc(CO)cs1	TZM-bl	MTS / absorbance		>66 µM
CCCCCCCCCCCCCCCCCCOP(=O)(O)OC[C@H]1O[C@@H](N2CCc3c(-c4ccccc4)ncnc32)[C@@H](O)C1O	Human fibroblasts BJ	MTT		>50 µM
Nc1nc(N)c2cc3c(nc2n1)CCc1ccccc1-3	SK-5	MTT		16.2 µM
C=C1CCC(C)=C2Cc3cc(ccc3O)C(=O)O[C@H](C(C)(C)O)CCC(C)(O)[C@H](Br)CCC12	DU4475 cells	MTT		18 µM
CN1C(=O)c2c(c3cccnc3n(O)c2=O)NC1c1ccccc1	HeLa			<100 µM
O=C(CSc1nnc(CNc2ccccc2)n1-c1ccccc1)NN=CC(O)C(O)C(O)C(O)CO	HepG2 2.2.15			>100 µM
Nc1ncnc2c1c(-c1cccs1)cn2[C@@H]1O[C@H](CO)[C@@H](O)C1(F)F	Replicon cells	XTT		9.84 µM
N#Cc1cc(NC(=O)c2ccccc2)c(=O)n2c1[nH]c1ccccc12	HEP-2			10 µg/mL
CCOP(=O)(CO[C@]1(C2CC2)C=C[C@H](n2cnc3c(N)ncnc32)C1)OCC	T4	XTT / absorbance		98 µM
CCOC(=O)c1ccc(N2Cc3c(c(OC)c4ccccc4c3OC)CC2=N)cc1	J774A.1 macrophages	neutral red		124 µM
C[C@@H]1C[C@@H](O)c2c(O[C@H]3O[C@H](CO)[C@@H](O)[C@H]3O)cccc2O1	SW-480	MTT		>40 µg/mL
C=C(C)C1CC[C@@H]2CC[C@]3(C)C(CCC4[C@@]5(C)CC[C@H](O)C(C)(C)C5CC[C@]43C)C12	1A2	XTT		11.6 µg/mL
C#Cc1cn([C@@H]2O[C@H](CO)[C@@H](O)C2(F)F)c2ncnc(N)c12	Replicon cells	XTT		17.1 µM
O=C1NC(c2ccccc2OCc2ccccc2)Nc2c1c(=O)n(O)c1ncccc21	HeLa			<100 µM
NCCC(NC(=O)c1ccc(-c2ccc(C(F)(F)F)cn2)[nH]1)c1csc(C(=O)NCCO)n1	TZM-bl	MTS / absorbance		>106.7 µM
CSc1nsc(-c2ccc(OCCOc3ccccc3)cc2)c1C#N	HELA-OHIO			>50 µM
CC(=O)NC[C@H]1CN(c2ccc(N3CCN(C4=NS(=O)(=O)c5ccccc5N4c4ccccc4)CC3)c(F)c2)C(=O)O1	Human foreskin fibroblasts	MTT		>50 µg/mL
COc1c2c(c(OC)c3ccccc13)CN(c1ccc(C)cc1Br)C(=N)C2	J774A.1 macrophages	neutral red		23.45 µM
CSc1nsc(-c2ccc(OCCOc3ccc(C#N)cc3)cc2)c1C#N	HEP-2/L-929/VERO			2 µM

Repeating the first 6 entries:

compound,cells,method,setting,result
COc1ccncc1CNCCCNc1ccnc2cc(Cl)ccc12,HepG2 cells,MTT,,4.968 µM
O=c1c(-c2ccccc2)c(O)c2cc(-c3cccc(-c4ccccc4)c3)cnc2n1O,HeLa,,,<100 µM
Nc1nc(N)c2cc3c(ccc4ccccc43)nc2n1,PC-3,MTT,,4.6 µM
Cc1cc(O)c(C(=O)/C=C/c2ccc(Br)s2)c(=O)o1,HCT116,MTT,,>10 µM
Cc1ccc(NCc2nnc(SCC(=O)NN=CC(O)C(O)C(O)C(O)CO)n2-c2ccccc2)cc1,HepG2 2.2.15,,,>100 µM
CC(=O)c1cc(CC(=O)c2ccccc2)c(=O)n2c1sc1ccccc12,HEF,,,40 µg/mL